Measured values from patent US4923895A, “Method of treatment of human immunodeficiency virus” (dated 1990).

Experiments:
HIV DNA synthesis = HIV DNA synthesis in seropositive patient's lymphocytes cocultured with PHA-stimulated normal lymphocytes; conditions: 0.6 microgram per ml and 6.0 microgram per ml
[1] = system: PHA stimulated peripheral blood lymphocytes and H9 cells; assay: Cytotoxic effect on PHA stimulated peripheral blood lymphocytes and H9 cells ((3H) thymidine uptake, viable cell numbers)
[2] = system: persistently infected H9 cells; assay: Cytotoxicity in persistently infected H9 cells
[3] = biological target: HIV reverse transcriptase (HIV-1 M:B_HXB2R, UniProt P04585); assay: In vitro HIV reverse transcriptase activity; conditions: 0.006 to 60 microgram per ml
[4] = historic use against syphilis; phlebitis, transitory nausea, vomiting, lacrimation, pruritis, mild dermatitis; cited from earlier work
HIV [5] = assay: HIV production in H9 cells persistently infected with HIV (antigen capture, reverse transcriptase activity, in vitro infectivity); conditions: 6.0 and 0.6 microgram per ml
HIV [6] = assay: HIV production from lymphocytes of HIV seropositive patients cocultured with PHA stimulated PBL, p24 antigen capture assay
HIV [7] = assay: In vitro HIV infection of PHA-stimulated normal peripheral blood lymphocytes or H9 cells, p24 antigen capture test
[8] = PHA stimulated peripheral blood lymphocytes and H9 cells
[9] = within 4-7 days following addition of drug
[10] = 12 days incubation, PBL or H9 cells

Nc1cc([As]=O)ccc1O (stereo not shown)
effect on the synthesis of HIV DNA (HIV DNA synthesis): significant inhibitory effect
cytotoxic effect ([1]; 60 microgram per ml): highly toxic for cells
concentration with low levels of cytotoxic effect [1, 8]: 1.2-6 microgram per ml
concentration with no cytopathic effect ((3H) thymidine uptake or viable cell numbers) [1, 8]: ≤ 0.6 microgram per ml
concentration with no toxicity ([1]; peripheral blood lymphocytes and H9 cells, summary statement): ≤ 0.6 microgram per ml
toxicity at the range of concentrations at which HIV is inhibited ([1]; range of concentrations at which HIV is inhibited): not toxic
cytotoxic effect ([2]; 60 milligrams per ml (so in the source)): the cells were destroyed
cytotoxic effect ([2]; persistently infected H9 cells, 1.2 microgram per ml): no cytotoxic effect
cytotoxic effect (cell growth) ([2]; persistently infected H9 cells, 6 microgram per ml): only mild inhibition of cell growth
direct inhibitory effect on in vitro HIV reverse transcriptase activity [3]: did not have direct inhibitory effects
side effects in patients [4]: generally tolerable side effects
amount of HIV in the culture fluid (HIV p24) compared to untreated control (HIV [5]; HIV-infected H9 cells): greatly reduced
infectious HIV in culture fluids (in vitro infectivity assay in PHA-stimulated PBL) (HIV [5]; [9]): no significant levels
reverse transcriptase activity in culture fluids (HIV [5]; [9]): no significant levels
inhibition of HIV production from lymphocytes of both patients (HIV [6]; coculture with PHA stimulated PBL): in a dose dependent manner
concentration that completely blocked virus production (HIV p24 antigen capture assay) (HIV [6]; lymphocytes from an AIDS patient and a seropositive asymptomatic individual cocultured with PHA stimulated PBL): ≥ 0.6 microgram per ml
inhibition of in vitro HIV infection (p24 in culture supernatant) (HIV [7]; 0.004 to 6 microgram per ml, 12 days): inhibited in vitro HIV infection in a dose dependent manner
concentration at which inhibition of HIV infection was detectable (p24) (HIV [7]; [10]): 0.035-0.07 microgram per ml
concentration giving complete inhibition of HIV production (p24) (HIV [7]; [10]): ≥ 0.15 microgram per ml
